Anti-infective test results gathered from many reports (values: NIAID ChemDB through PubChem).

Shared fields: tests in culture; organism: HIV-1

Blank or dashed fields: not listed here.

smiles,strain or isolate,read by,changes,endpoint,cells,result
c1ccc(CNCc2ccc(CN3CCCNCCNCCCNCC3)cc2)nc1,HE,,,EC50,,0.008 µg/mL
Cc1cn([C@H]2C[C@H](N=[N+]=[N-])[C@@H](COC(=O)C(=O)N[C@@H](CO)C(=O)N[C@@H](Cc3ccccc3)C(=O)N[C@@H](CC(C)C)C(=O)N[C@H](C(=O)O)[C@@H](C)O)O2)c(=O)[nH]c1=O,IIIB,syncytia,,EC50,MOLT-4 (HIV-1 IIIB) / M8166 + MOLT-4,>100 µM
C[C@H](Cn1cnc2c(N)ncnc21)OCP(=O)(O)O,1391-4 high AZT resistance (RT D67 K70 T215),p24,RT-D67 K70 T215,EC50,MT-2,0.5 µM
N#CCN1C(=O)N(Cc2ccccc2)S(=O)(=O)c2cscc21,,syncytia,RT-V106A,EC50,CEM,156 µM
CC(=O)OC[C@H]1O[C@@H](n2cc(C)c(=O)[nH]c2=O)C[C@@H]1N(C)OC(C)=O,IIIB,trypan blue,,EC50,MT-4,89 µg/mL
Cc1cn([C@H]2C[C@H](N=[N+]=[N-])[C@@H](COC(=O)C(=O)N3CCCC3C(=O)N[C@H](Cc3ccccc3)C(=O)OCc3ccccc3)O2)c(=O)[nH]c1=O,IIIB,antigen,,EC50,MT-4,0.016 µM
O=S1(=O)N(Cc2ccc(CO)cc2)[C@H](COc2ccccc2)[C@H](O)[C@@H](O)[C@@H](COc2ccccc2)N1Cc1ccc(CO)cc1,,cytopathic effect,,EC50,MT-4,1.55 µM
Nc1nc(N)c2ncn(CCOCP(=O)(O)O)c2n1,IIIB,antigen,,EC50,H9,<0.2 µM
Cc1cn([C@H]2C[C@H](N(C)O)[C@@H](CO)O2)c(=O)[nH]c1=O,IIIB,syncytia,,EC50,CEM,3.7 µg/mL
CNC(=O)[C@@H](NC(=O)[C@@H](C[C@@H](O)[C@@H](OCc1ccccc1)C(=O)N[C@H](C(=O)NC)C(C)C)OCc1ccccc1)C(C)C,,cytopathic effect,,EC50,MT-4,1.08 µM
Nc1ncc2ncn(CCOCP(=O)(O)O)c2n1,IIIB,cytopathic effect / trypan blue,,EC50,MT-4,45 µM
CC[C@H](C)[C@H](NC(=O)Cc1ccccn1)C(=O)N[C@@H](Cc1ccccc1)[C@@H](O)[C@H](O)[C@H](Cc1ccccc1)NC(=O)[C@@H](NC(=O)Cc1ccccn1)[C@@H](C)CC,RF,,,EC50,MT-2,0.35 µg/mL
Nc1nc2c(ncn2CCOCP(=O)(O)O)c(=O)[nH]1,IIIB,cytopathic effect / trypan blue,,EC50,MT-4,3.8 µM
CCN(C(=O)NC)C1CCN(CCC(CN(C)S(=O)(=O)c2ccccc2)c2ccccc2)CC1,YU2,p24,,EC95,PBMC,0.12 µM
Cc1cn([C@H]2C[C@H](F)[C@@H](COCP(=O)(O)O)O2)c(=O)[nH]c1=O,,,,EC50,MT-4,~1 µM
CCCN(C(=O)OCc1ccccc1)C1CCN(CCC(CN(C)S(=O)(=O)c2ccccc2)c2ccccc2)CC1,YU2,p24,,EC50,PBMC,<25 µM
COC[C@@H](c1ccc(C(F)(F)F)cc1)N1CCN(C2(C)CCN(C(=O)c3c(C)ncnc3C)CC2)C[C@@H]1C,NL4-3,MTT / absorbance,,EC50,MT-4,>5 µM
CCN1C(=O)N(Cc2ccccc2)S(=O)(=O)c2cscc21,,syncytia,RT-E138K,EC50,CEM,310.2 µM
O=C1N(Cc2cccc(CO)c2)[C@H](Cc2ccccc2)[C@H](O)[C@@H](O)[C@@H](Cc2ccccc2)N1Cc1cccc(CO)c1,RF,,,EC90,MT-2/MT-4 + MT-2,0.0388 µM
O=c1[nH]cnc2c1ncn2[C@H]1CC[C@@H](CO)O1,IIIB,antigen,,EC50,MT-4,14 µM
Cc1cn([C@H]2C[C@H](N=[N+]=[N-])[C@@H](CO)O2)c(=O)[nH]c1=O,LAV,,,EC50,PBMC,0.002 µM
CC(C)(C)NC(=O)[C@@H]1C[C@@H]2CCCC[C@@H]2CN1C[C@@H](O)[C@H](Cc1ccccc1)NC(=O)[C@H](CC(N)=O)NC(=O)c1ccc2ccccc2n1,NL4-3,p24,PR-L10R M46I L63P V82T,EC95,MT-4,0.025 µM
CC(C)(C)NC(=O)[C@@H]1CN(Cc2cc3cnccc3o2)CCN1C[C@@H](O)C[C@@H](Cc1ccccc1)C(=O)N[C@H]1c2ccccc2C[C@H]1O,NL4-3,,,EC95,MT-4,0.015 µM
CC(C)(C)NC(=O)c1ccccc1NC[C@H](O)[C@H](Cc1ccccc1)NC(=O)[C@H](CC(N)=O)NC(=O)c1ccc2ccccc2n1,,cytopathic effect,,EC50,MT-4,10.12 µM
O=c1ccn(CCOCP(=O)(O)O)c(=O)[nH]1,IIIB,cytopathic effect / trypan blue,,EC50,MT-4,>125 µM
Nc1nc(NC2CC2)c2ncn([C@H]3C=C[C@@H](CO)C3)c2n1,IIIB,p24,,EC50,PBMC,0.63 µM
COC(=O)N[C@H](C(=O)N[C@@H](Cc1ccccc1)[C@@H](O)CN(Cc1ccc(-c2ccccn2)cc1)NC(=O)[C@@H](NC(=O)OC)C(C)(C)C)C(C)(C)C,,cytopathic effect,,EC50,MT-4,0.006 µM
CN(CC(CCN1CCC(NC(=O)NCc2ccccc2)CC1)c1ccccc1)S(=O)(=O)c1ccccc1,YU2,p24,,EC50,PBMC,<0.1 µM
O=C(N[C@H]1c2ccccc2C[C@H]1O)[C@H](OCc1ccccc1)[C@H](O)[C@@H](O)[C@@H](OCc1ccccc1)C(=O)N[C@H]1c2ccccc2C[C@H]1O,,cytopathic effect,,EC50,MT-4,0.1 µM
O=C(OC[C@@H]1CC[C@H](n2cnc3c(=O)[nH]cnc32)O1)C(=O)N1CCCC1C(=O)N[C@H](Cc1ccccc1)C(=O)OCc1ccccc1,IIIB,antigen,,EC50,MT-4,15 µM
CN1C(=O)N(Cc2ccccc2)S(=O)(=O)c2cscc21,MN,syncytia,,EC50,MT-4,65.8 µM
CNC(=O)c1cccc(CN2[C@H](COc3ccccc3)[C@H](O)[C@@H](O)[C@@H](COc3ccccc3)N(Cc3cccc(C(=O)NC)c3)S2(=O)=O)c1,,cytopathic effect,,EC50,MT-4,13 µM
Nc1ncnc2c1ncn2[C@H]1CC[C@@H](COC(=O)C(=O)N2CCCC2C(=O)N[C@H](Cc2ccccc2)C(=O)OCc2ccccc2)O1,IIIB,antigen,,EC50,MT-4,12 µM
CC(C)[C@@H]1CC[C@]2(C(=O)NCCC(=O)O)CC[C@]3(C)[C@H](CC[C@@H]4[C@@]5(C)CC=C(c6ccc(C(=O)O)cc6)C(C)(C)[C@@H]5CC[C@]43C)[C@@H]12,NL4-3,luciferase,Gag P373S,EC50,MT-2,<0.1 µM
CC(C)(O)c1cccc(CN2C(=O)N(Cc3cccc(C(C)(C)O)c3)[C@H](Cc3ccccc3)[C@H](O)[C@@H](O)[C@H]2Cc2ccccc2)c1,HXB2,p24,PR-184V,EC50,MT-2/MT-4 + MT-2,<0.0722 µM
COC(=O)C(=O)N1CCC[C@H]1C(=O)N[C@@H](Cc1ccccc1)C(=O)OCc1ccccc1,IIIB,syncytia,,EC50,MOLT-4 (HIV-1 IIIB) / M8166 + MOLT-4,>150 µM
O=C(NCc1ccccc1)[C@H](OCc1ccccc1)[C@H](O)[C@@H](O)[C@@H](OCc1ccccc1)C(=O)N[C@H]1c2ccccc2C[C@H]1O,,cytopathic effect,,EC50,MT-4,2.59 µM
CN(C(=O)OCc1ccccc1)C1CCN(CCC(CN(C)S(=O)(=O)c2ccccc2)c2ccccc2)CC1,YU2,p24,,EC50,PBMC,<25 µM
O=C(O)c1cc[c]([Sb](=[O])([OH])[OH])cc1[N+](=O)[O-],RF,cytopathic effect,,EC50,CEM + CEM-SS,8.68 µM
CNC(=O)c1cccc(CN2[C@H](COc3ccccc3)[C@H](O)[C@@H](O)[C@@H](COc3ccccc3)N(Cc3ccccc3)S2(=O)=O)c1,,cytopathic effect,,EC50,MT-4,>79 µM
CC(C)CN(C[C@@H](O)[C@H](Cc1ccccc1)NC(=O)[C@H](CC(N)=O)NC(=O)c1ccc2ccccc2n1)C(=O)NC(C)(C)C,NL4-3,p24,PR-L10R,EC50,MT-4,<0.1 µM
C=C(C)[C@@H]1CC[C@]2(C(=O)N3CCCC(C(=O)N(CC)CC)C3)CC[C@]3(C)[C@H](CC[C@@H]4[C@@]5(C)CC=C(c6ccc(C(=O)O)cc6)C(C)(C)[C@@H]5CC[C@]43C)[C@@H]12,NL4-3,luciferase,Gag P373S,EC50,MT-2,<0.1 µM
Nc1ccn(C[C@@H](CO)OCP(=O)(O)O)c(=O)n1,IIIB,cytopathic effect / trypan blue,,EC50,MT-4,>250 µM
O=C1N(Cc2ccccc2)c2cscc2S(=O)(=O)N1Cc1ccccc1,RF,syncytia,,EC50,MT-4,5.5 µM
CC(C)(C)NC(=O)[C@@H]1CN(C(C)(C)c2cc3cnccc3o2)CCN1C[C@@H](O)C[C@@H](Cc1ccccc1)C(=O)N[C@H]1c2ccccc2C[C@H]1O,NL4-3,,,EC50,MT-4,<0.015 µM
Nc1ncnc2c1ncn2CCOCP(=O)(O)O,IIIB,cytopathic effect / trypan blue,,EC50,ATH8,20 µM

ECn: concentration that inhibits the pathogen or its effect by n%. Rows are shuffled and stem from different studies.